Literature values, collected in patent US20240115717A1 (priority 2020, published 2024).

System: U251MG, D54MG and U87MG glioma cell lines
Conditions: read-out: IC50 on invasion and migration; cited from earlier work

In the case of Chlorotoxin [SEQ ID NO: 1], the pIC50 is listed as roughly 6.22.

pIC50: −log10 of the molar value.
